# In patent US20240042018A1 (University of Washington, published 2024):
# B1: H1MI15-I53-50A trimer (A/Michigan/45/2015 HA 1-676 Y98F) (other)
# chain: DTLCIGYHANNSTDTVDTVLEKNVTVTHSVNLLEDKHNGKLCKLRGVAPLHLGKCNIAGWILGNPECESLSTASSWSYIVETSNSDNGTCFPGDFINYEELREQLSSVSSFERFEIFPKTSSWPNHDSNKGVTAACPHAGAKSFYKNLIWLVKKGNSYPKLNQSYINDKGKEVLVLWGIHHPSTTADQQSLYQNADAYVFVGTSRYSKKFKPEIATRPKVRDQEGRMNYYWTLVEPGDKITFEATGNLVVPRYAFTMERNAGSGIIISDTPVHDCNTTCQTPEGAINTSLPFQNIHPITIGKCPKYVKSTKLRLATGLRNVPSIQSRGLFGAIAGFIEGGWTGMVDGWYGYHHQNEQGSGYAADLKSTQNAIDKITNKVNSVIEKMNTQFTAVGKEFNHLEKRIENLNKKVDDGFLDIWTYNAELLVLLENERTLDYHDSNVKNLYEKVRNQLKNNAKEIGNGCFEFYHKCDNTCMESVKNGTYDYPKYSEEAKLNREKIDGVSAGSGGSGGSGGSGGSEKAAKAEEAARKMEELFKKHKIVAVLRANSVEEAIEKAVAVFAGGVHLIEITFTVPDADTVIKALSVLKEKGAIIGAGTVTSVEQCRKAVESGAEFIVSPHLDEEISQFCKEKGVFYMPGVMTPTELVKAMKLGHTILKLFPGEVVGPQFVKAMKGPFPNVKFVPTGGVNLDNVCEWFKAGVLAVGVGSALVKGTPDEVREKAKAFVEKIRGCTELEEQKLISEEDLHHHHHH
# Target: I53-50B.4PT1 pentamer
# Test: in vitro nanoparticle assembly, SEC and SDS-PAGE
binder,measurement,value
B1,binding result,binds
